Data: patent EP1452605A1, “Method for determining antiviral activity” (Universiteit Utrecht Holding B.V., priority 2003, dated 2004)

Test system: HIV-1Ba-L
Assay: HIV-1 infection of PBMC, p24-core antigen ELISA
Type: cell-based
Conditions: ratio TC50/IC50, PBMC
Experimental: To correct for the input virus, an extra control consisting of medium containing the same amount of input virus as added to the cells was included in the experiment. The amount of p24 in this control was subsequently subtracted from the p24 values of the samples in order to obtain the exact amount of p24 produced by the cells. p24-core antigen quantification by ELISA After 2 or 7 days incubation, samples of the supernatants were collected, inactivated by addition of Empigen (Calbiochem, La Jolla, CA, USA) and by heat inactivation at 56°C for 30 min. p24-core antigen concentration was determined by an enzyme linked immunoabsorbent assay (ELISA) (AMPAK™, DAKO, Cambridgeshire, UK) as described previously ^18,19. The optical density values were converted into p24 concentration (ng/ml) with the use of a calibration curve made by serial dilutions of recombinant p24 protein (NIBSC, UK) that was submitted to the same treatment as the samples.
(§1) To correct for the input virus, an extra control consisting of medium containing the same amount of input virus as added to the cells was included in the experiment. The amount of p24 in this control was subsequently subtracted from the p24 values of the samples in order to obtain the exact amount of p24 produced by the cells.
(§2) After 7 days incubation, samples of the supernatants were collected, inactivated by addition of Empigen (Calbiochem, La Jolla, CA, USA) and by heat inactivation at 56°C for 30 min. p24-core antigen concentration was determined by an ELISA (AMPAK™, DAKO, Cambridgeshire, UK) as described previously ^39,40. The optical density values were converted into p24 concentration (ng/ml) with the use of a calibration curve made by serial dilutions of recombinant p24 protein (NIBSC, UK) that was submitted to the same treatment as the samples.
as §1
as §2, with “enzyme linked immunoabsorbent assay (ELISA)” for “ELISA”, “15,16.” for “^39,40.”

Structure (SMILES) | SI
CCCCC#CCSc1ccccc1OC(C)=O [APHS, o-(acetoxyphenyl)hept-2-ynyl sulfide] | 18
CCCCC#CCS(=O)(=O)c1ccccc1OC(C)=O [APHS-d1] | 86
CCCCCCCSc1ccccc1OC(C)=O [APHS-d2] | 41
CSc1ccccc1OC(C)=O [APHS-d4] | 2
CC(=O)Oc1ccccc1C(=O)O [aspirin, reference compound] | 17
CCCCCCCCSc1ccccc1OC(C)=O [compound 9] | 7
CCCCCCCSc1ccccc1OC(C)=O [compound 11] | 5
CCCCCCSc1ccccc1OC(C)=O [compound 18] | 48
CCCCCSc1ccccc1O [compound 19] | 159
